# Assay: general procedure: peptide synthesis; 1,1'-carbonyldiimidazole/1-hydroxybenzotriazole, N-ethyldiisopropylamine
substance,measurement,setting,value
"1-{2-[(L-Naphthylalanyl-L-valyl)amino]-1-hydroxy-3-phenylpropyl},1-{1-[(L-naphthylalanyl-L-valyl)amino]-2-phenylethyl}phosphinic acid dihydrobromide",step yield,late stage modification step,50%
"Ethyl 1-{2-[(L-naphthylalanyl-L-valyl)amino]-1-hydroxy-3-phenylpropyl},1-{1-[(L- naphthylalanyl-L-valyl)amino]-2-phenylethyl}phosphinate bistrifluoroacetate",step yield,late stage modification step,80%
"Ethyl 1-{2-[(N-tert-butyloxycarbonyl-L-naphthylalanyl-L-valyl)amino]-1-hydroxy-3-phenylpropyl},1-{1-[(N-tert-butyloxycarbonyl-L-naphthylalanyl-L-valyl)amino]-2-phenylethyl}phosphinate",step yield,coupling step,62%

# Source: patent US5663139A (Hoechst Aktiengesellschaft, priority 1992, dated 1997)
